Measurements reported in PubChem BioAssay AID624099 (ICCB-Longwood, 2012).
Aim: 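Host factors E2 relies on to silence an HPV18 LCR reporter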 (primary screen). Cells: human C33A cervical carcinoma cells (HPV-negative) stably expressing BPV1 E2 and an HPV18 LCR luciferase reporter. Knock-down reagent: siRNA pool against human genes, 40 nM. Timing: 72 h. Measurement: 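Per-well luciferase luminescence, z-scored on each plate against the plate mean and SD with control wells left out, then averaged across three replicate plates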. Direction: mean z-score and z-score: higher = stronger reporter signal, weaker E2 silencing. Rule for the call: 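Hit if mean z-score reaches 2 and two or more of three replicate z-scores also reach 2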.
The whole screen tested about 21,000 reagents; this is an unselected part. In the full data, 497 (2.4%) are marked active. 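Higher z means weaker E2 silencing; only reporter increases were scored, and knock-downs that hurt cell survival may mask genuine repressor factors.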 Reagents against one gene are numbered here. No sequences are given here.

target | pool no. | mean z-score | z-score, replicate A | z-score, replicate B | z-score, replicate C | Call
LRRC19 | 1 | 0.48 | 0.59 | 0.28 | 0.55 | inactive
MATN4 | 1 | -0.25 | 0.07 | -0.23 | -0.59 | inactive
ARHGEF38 | 1 | -0.82 | -1 | -0.67 | -0.8 | inactive
ARHGEF38 | 2 | -1.26 | -0.66 | -1.78 | -1.33 | inactive
LOC388638 (retired record) | 1 | 0.06 | 0.56 | -0.12 | -0.25 | inactive
WNT7B | 1 | -1.07 | -1.22 | -1 | -1 | inactive
NNT | 1 | 2.82 | 2.23 | 3.22 | 3 | active
GIMAP4 | 1 | -0.07 | 0.11 | 0.17 | -0.49 | inactive
VILL | 1 | -0.03 | 0.05 | -0.08 | -0.05 | inactive
TUFM | 1 | -0.25 | -0.42 | -0.37 | 0.04 | inactive
IL16 | 1 | 0.12 | -0.08 | 0.24 | 0.18 | inactive
RAF1 | 1 | -0.11 | 0.03 | -0.3 | -0.05 | inactive
RPS6KB1 | 1 | 0.08 | -0.09 | 0.27 | 0.06 | inactive
LOC401056 (retired record) | 1 | 0.61 | 0.4 | 0.57 | 0.87 | inactive
PROP1 | 1 | 0.17 | -0.04 | 0.45 | 0.1 | inactive
TRAPPC11 | 1 | 0.05 | 0.27 | 0.21 | -0.34 | inactive
LOC391661 (retired record) | 1 | 0.09 | -0.01 | 0.01 | 0.28 | inactive
GNA14 | 1 | -0.31 | -0.53 | -0.18 | -0.21 | inactive
RASL11A | 1 | -1.6 | -1.54 | -1.53 | -1.73 | inactive
LOC343854 (retired record) | 1 | -0.78 | -0.96 | -0.72 | -0.65 | inactive
PNO1 | 1 | 0.3 | 0.35 | 0.43 | 0.12 | inactive
CLSPN | 1 | -0.12 | -0.6 | -0.02 | 0.27 | inactive
SRRM2-AS1 | 1 | 0.18 | 0.71 | 0.03 | -0.21 | inactive
ZNF334 | 1 | 0.89 | 0.21 | 0.66 | 1.81 | inactive
DBP | 1 | -1.08 | -0.79 | -1.53 | -0.92 | inactive
TINF2 | 1 | 0.04 | 0.23 | 0.03 | -0.12 | inactive
APCS | 1 | 0.11 | -0.08 | 0.33 | 0.06 | inactive
NFKB2 | 1 | -0.29 | -0.35 | -0.45 | -0.06 | inactive
PTGES3 | 1 | -0.54 | -0.46 | -0.55 | -0.6 | inactive
DHRS11 | 1 | -0.74 | -1.3 | -0.6 | -0.33 | inactive
MRPL23 | 1 | 0.9 | 0.62 | 1.07 | 1.02 | inactive
MINDY2 | 1 | -0.47 | -0.73 | -0.65 | -0.03 | inactive
SH2D5 | 1 | -1.34 | -1.19 | -1.57 | -1.25 | inactive
RPAP3 | 1 | -0.26 | -0.04 | -0.32 | -0.41 | inactive
LOC338731 (retired record) | 1 | 0.46 | 0.54 | 0.26 | 0.59 | inactive
KATNAL2 | 1 | 0.4 | 0.15 | 0.56 | 0.49 | inactive
LOC200491 (retired record) | 1 | -1.43 | -1.03 | -1.89 | -1.38 | inactive
BBS9 | 1 | -0.41 | -0.41 | -0.19 | -0.64 | inactive
MRPL43 | 1 | -1.89 | -2.02 | -1.81 | -1.84 | inactive

4 consecutive entries already listed:
target | pool no. | mean z-score | z-score, replicate A | z-score, replicate B | z-score, replicate C | Call
ARHGEF38 | 1 | -0.82 | -1 | -0.67 | -0.8 | inactive
ARHGEF38 | 2 | -1.26 | -0.66 | -1.78 | -1.33 | inactive
LOC388638 (retired record) | 1 | 0.06 | 0.56 | -0.12 | -0.25 | inactive
WNT7B | 1 | -1.07 | -1.22 | -1 | -1 | inactive
